Experimental data reported in article PMC4726272.
No signal at the amounts used counts as a negative. Protein sequences can lack the tags named with them. For some assays here: For at least one entry, the source does not settle the construct or the ends of the probe.

Key:
[1] = target: T1, OmpR-6His (Dickeya dadantii 3937 (EC3937)) (UniProt E0SJT3); assay: EMSA; conditions: 10 mM Tris pH 7.5, 50 mM NaCl, 0.5 mM DTT, 1 mM MgCl2, 2.5% glycerol; 20 min at room temperature; 50 ng DNA in 20 ul; 6% acrylamide-TBE gel; recombinant …; residues 1-239; protein details: His-tag (pET100/D-Topo); label: none (ethidium bromide staining); probe letters rebuilt from the primers and the genome
T1 sequence (looked up): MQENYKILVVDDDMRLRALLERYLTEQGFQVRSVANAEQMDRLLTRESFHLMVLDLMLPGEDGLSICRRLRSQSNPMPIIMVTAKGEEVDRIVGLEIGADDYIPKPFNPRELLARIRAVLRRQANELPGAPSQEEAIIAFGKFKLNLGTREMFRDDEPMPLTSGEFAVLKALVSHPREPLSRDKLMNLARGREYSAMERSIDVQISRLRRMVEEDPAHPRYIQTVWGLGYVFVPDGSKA

RcsB-6His = target: T2, RcsB-6His (UniProt E0SDZ3); assay: EMSA; conditions: 10 mM Tris pH 7.5, 50 mM NaCl, 0.5 mM DTT, 1 mM MgCl2, 2.5% glycerol; 20 min at room temperature; 50 ng DNA in 20 ul; 6% acrylamide-TBE gel; recombinant …; protein details: 6xHis; label: none (ethidium bromide staining); probe letters rebuilt from the primers and the genome
T2 sequence (looked up, limits assumed): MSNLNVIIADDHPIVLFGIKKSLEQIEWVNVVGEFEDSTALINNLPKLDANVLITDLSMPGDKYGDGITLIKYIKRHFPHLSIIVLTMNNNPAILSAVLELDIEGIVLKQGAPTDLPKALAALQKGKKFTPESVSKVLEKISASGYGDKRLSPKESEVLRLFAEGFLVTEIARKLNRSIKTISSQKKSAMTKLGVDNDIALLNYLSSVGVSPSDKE

Sequence: AACTGACCAGCATGGGATTCTTCGCCACCAGTACTTTTTTTGTGTTATCCGGCTTTCTGCTGACGCACGTTTATCTGCGTGACGGCCAGTTGCGGGAACCCGCCCGACACTTTTTAGCCAAGCGGTTGTTTAACCTCTACCCGATTCATATCATCGGTCTGGTGTCATCCATCGTCGTGGTCAGCCTGATGCACTGGCTGGCGATTCCGCCGGAAGGTCAGGTCGCTAGCGCCCGCTTCGTGATTTACGACAGCAACGACCCCAGCGTCGCGCCGGAAACATTACGCCACTACATGGATAACGCTGAACTGGCTTTTAACGGCTTGTTGCAATTACTGATGTTGCAGGCGTGGAACCCCTACTTTCTGACCTTCAACGCGCCGTTGTGGTCGGTGTCGACATTGTTCTTCTTCTATTTGCTGTTCCCACTGCTGGCGCCGCGGCTGTTGGGCAGTCGTCACCCGCGCCTGTGGTTGATGGCGATGTTCGTGCTGTATTTACTGCCGCCGATATGGGTGATCTGGCATCAATTATATGGCGCGCCATACACCGGCCTGCTACAACGCAACCCC (double strand) [opgC mid-coding control fragment]
- binding result [1]: no binding
- binding result (RcsB-6His): no binding
